The entries are a selection whose mix differs from that of the whole data set.

By UniProt entry, the sequences of proteins in these tests, tags left out.
UniProt P29990, whole entry: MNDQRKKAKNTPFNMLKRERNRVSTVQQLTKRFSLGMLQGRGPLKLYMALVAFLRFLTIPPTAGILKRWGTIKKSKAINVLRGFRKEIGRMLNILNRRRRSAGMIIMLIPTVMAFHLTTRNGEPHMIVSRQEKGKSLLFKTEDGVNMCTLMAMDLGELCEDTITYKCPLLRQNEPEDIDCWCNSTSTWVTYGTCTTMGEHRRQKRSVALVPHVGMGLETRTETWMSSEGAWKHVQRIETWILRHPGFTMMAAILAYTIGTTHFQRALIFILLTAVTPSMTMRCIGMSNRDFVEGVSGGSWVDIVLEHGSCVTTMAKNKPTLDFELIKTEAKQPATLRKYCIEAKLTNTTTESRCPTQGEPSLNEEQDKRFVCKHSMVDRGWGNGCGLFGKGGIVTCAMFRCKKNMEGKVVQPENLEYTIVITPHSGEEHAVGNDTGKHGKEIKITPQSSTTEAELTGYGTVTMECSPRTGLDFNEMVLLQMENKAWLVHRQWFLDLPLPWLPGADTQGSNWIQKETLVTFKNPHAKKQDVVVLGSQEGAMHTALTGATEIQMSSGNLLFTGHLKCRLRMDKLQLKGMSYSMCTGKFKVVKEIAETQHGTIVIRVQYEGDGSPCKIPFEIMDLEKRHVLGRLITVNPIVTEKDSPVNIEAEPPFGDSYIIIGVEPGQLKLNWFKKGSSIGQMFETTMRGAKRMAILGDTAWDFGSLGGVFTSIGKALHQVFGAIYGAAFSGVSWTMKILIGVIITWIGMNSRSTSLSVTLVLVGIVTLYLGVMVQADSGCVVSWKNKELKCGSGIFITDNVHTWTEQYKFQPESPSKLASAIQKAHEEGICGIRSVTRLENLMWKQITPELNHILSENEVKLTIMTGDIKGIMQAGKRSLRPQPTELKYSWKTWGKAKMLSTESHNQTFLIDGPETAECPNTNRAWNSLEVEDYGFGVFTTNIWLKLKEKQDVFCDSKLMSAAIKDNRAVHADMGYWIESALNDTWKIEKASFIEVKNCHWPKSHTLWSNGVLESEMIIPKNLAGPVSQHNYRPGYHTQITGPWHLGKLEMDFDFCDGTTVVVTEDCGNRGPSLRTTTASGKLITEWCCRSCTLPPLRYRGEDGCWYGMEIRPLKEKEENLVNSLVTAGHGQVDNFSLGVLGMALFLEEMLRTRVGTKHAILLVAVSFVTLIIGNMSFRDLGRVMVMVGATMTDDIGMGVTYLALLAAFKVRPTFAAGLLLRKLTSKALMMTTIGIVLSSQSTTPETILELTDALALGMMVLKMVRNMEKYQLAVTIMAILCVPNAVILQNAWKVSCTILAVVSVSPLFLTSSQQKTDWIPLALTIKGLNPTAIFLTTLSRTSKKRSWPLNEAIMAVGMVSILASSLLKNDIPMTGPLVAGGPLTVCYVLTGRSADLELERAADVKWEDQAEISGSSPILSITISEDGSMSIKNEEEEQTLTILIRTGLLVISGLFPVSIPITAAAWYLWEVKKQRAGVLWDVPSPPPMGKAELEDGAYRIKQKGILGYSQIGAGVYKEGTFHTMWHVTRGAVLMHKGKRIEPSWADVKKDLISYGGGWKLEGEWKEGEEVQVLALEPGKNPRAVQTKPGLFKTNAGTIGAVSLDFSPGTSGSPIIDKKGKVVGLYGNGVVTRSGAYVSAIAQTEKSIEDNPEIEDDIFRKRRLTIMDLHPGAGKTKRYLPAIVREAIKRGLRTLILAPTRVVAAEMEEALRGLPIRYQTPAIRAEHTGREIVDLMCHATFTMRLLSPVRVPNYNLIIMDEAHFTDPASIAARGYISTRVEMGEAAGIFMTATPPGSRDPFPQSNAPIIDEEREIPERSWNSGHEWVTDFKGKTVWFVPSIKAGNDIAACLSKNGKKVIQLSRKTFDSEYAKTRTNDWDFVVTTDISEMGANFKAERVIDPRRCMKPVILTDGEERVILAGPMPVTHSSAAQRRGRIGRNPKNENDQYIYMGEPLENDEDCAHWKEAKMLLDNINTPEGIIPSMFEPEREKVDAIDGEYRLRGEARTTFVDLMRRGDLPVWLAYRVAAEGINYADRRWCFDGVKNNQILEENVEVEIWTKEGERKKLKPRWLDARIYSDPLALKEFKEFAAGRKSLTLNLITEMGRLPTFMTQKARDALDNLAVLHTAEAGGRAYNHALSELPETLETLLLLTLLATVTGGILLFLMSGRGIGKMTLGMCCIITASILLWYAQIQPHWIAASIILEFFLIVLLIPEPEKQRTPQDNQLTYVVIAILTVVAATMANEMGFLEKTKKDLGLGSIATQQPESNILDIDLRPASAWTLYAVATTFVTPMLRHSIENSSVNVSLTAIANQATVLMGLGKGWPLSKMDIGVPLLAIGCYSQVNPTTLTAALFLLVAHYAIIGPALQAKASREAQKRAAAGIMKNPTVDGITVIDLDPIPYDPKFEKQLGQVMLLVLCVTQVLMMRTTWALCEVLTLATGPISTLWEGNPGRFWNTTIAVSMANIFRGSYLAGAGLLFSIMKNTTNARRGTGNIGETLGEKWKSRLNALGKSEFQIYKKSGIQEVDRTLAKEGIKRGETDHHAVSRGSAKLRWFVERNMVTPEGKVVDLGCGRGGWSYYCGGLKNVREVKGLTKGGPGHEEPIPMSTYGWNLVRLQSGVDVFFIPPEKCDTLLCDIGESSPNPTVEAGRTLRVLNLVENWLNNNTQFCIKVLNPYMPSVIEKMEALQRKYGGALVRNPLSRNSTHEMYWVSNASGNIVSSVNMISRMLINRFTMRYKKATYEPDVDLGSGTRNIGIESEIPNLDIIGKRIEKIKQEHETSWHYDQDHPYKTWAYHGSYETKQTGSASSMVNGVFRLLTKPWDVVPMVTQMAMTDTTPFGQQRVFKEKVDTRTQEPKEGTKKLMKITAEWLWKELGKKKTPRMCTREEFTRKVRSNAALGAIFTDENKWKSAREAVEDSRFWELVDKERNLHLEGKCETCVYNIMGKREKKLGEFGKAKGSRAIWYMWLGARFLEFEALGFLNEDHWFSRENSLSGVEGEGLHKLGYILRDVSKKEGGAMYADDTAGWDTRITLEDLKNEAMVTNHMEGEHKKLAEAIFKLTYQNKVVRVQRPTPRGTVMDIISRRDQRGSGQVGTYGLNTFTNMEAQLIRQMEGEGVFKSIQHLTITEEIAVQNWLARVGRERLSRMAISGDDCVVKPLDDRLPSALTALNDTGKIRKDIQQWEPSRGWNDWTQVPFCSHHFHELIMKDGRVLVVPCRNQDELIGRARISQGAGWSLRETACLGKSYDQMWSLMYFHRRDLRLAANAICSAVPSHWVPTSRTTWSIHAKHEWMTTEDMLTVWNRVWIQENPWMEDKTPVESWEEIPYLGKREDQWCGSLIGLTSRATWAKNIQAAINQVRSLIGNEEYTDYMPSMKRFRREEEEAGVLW

The assay concerns the target Genome polyprotein (dengue virus type 2) (UniProt P29990). The assay is described as follows: Functional biochemical assay to identify treatments for viral infectious disease that targets Dengue virus type 2 NS2B-NS3 protease. Utilizing a direct enzyme activity measurement method, reading the fluorescence intensity is used to characterize the relative potency of inhibitors as % inhibition. ….

Usually inhibition stands for the percentage by which the read-out fell short of the control. A high value points to a strong effect. Regarding `O=c1[nH]c2ccccc2n1C1CCN(Cc2c[nH]c3ccccc23)CC1`, the inhibition amounted to 1.5% (Thailand/16681/1984, Concentration 49.5 uM, Number of replicates 2.0, Standard deviation 0.9681987948382585 %); 3.19% (Thailand/16681/1984, Concentration 99.01 uM, Number of replicates 2.0, Standard deviation 0.6770795118460521 %); 5.23% (Thailand/16681/1984, Concentration 198.0 uM, Number of replicates 2.0, Standard deviation 0.9570655783635603 %).

Source of the values: ChEMBL document CHEMBL5606460, “ASAP - DENV-2 NS2B-NS3 protease fluorescence single point” (2024).
